Measured values from several laboratories, pooled; numbers as filed in NIAID ChemDB.

Common to all: tests in culture; species: Mycobacterium tuberculosis

A number after MIC or MFC names an inhibition level or a share of isolates. MIC bound: limit read from a one-dose screen. Percent inhibition refers to the dose given; in toxicity tests it is the harm to the cells. ECn is the concentration giving n% inhibition of infection, replication or growth. Rows are shuffled and stem from different studies. Two numbers with a dash give a range or band. Blank or dashed fields: not listed here.

| compound | mutations | read by | measure | strain or isolate | cells | tested at | value |
|---|---|---|---|---|---|---|---|
| CO[C@H]1/C=C/O[C@@]2(C)Oc3c(C)c(O)c4c(O)c(c(/C=N/N5C(C)CN(Cc6ccccc6)CC5C)c(O)c4c3C2=O)NC(=O)/C(C)=C\C=C\[C@H](C)[C@H](O)[C@@H](C)[C@@H](O)[C@@H](C)[C@H](OC(C)=O)[C@@H]1C |  | agar | MIC | MDR-TB |  |  | 16 µg/mL |
| COc1ccccc1NC(=O)/C(Cc1nc2ccc([N+](=O)[O-])cc2[nH]c1=O)=N/NC(=O)C[N+](C)(C)C.[Cl-] |  | BACTEC | inhibition | H37Rv |  | 12.5 µg/mL | 21% |
| CN1CCN(Cc2ccccc2NC/C=C/c2ccccc2)CC1 |  |  | MIC | B905 |  |  | >64 µg/mL |
| O=C(CCCCCCCCC(=O)N/N=C/c1ccccc1O)N/N=C/c1ccccc1O |  | BACTEC | MIC bound | H37Rv |  |  | >12.5 µg/mL |
| O=[N+]([O-])c1ccc(CN2CC3CN(c4ccc(OC(F)(F)F)cc4)CC3C2)o1 | INH RFP resistant | resazurin | MIC90 | Clinical Isolate 16995 |  |  | 3.24 µg/mL |
| C[C@H]1COc2c(N3CCC4(CC3)OCCO4)c(F)cc3c(=O)c(C(=O)O)cn1c23 |  | agar | MIC99 | MDR-TB |  |  | 0.09 µM |
| Cc1ccc(NC(N)=S)cc1N |  |  | MIC | A67 |  |  | 1000 µM |
| CC(=O)N(C(C)=O)N1C(=O)[C@@H]2C3C=CC([C@H]4C[C@@H]34)[C@@H]2C1=O |  | resazurin | inhibition | H37Rv |  | 6.25 µg/mL | 12% |
| NC(=S)Nc1ccc(Br)cc1 |  |  | MIC | A67 |  |  | 250 µM |
| CC(=O)NNc1nc(C)c(C(=O)NNC(=O)C(=O)Nc2ccc(C)c(C)c2)s1 |  | BACTEC | inhibition | H37Rv |  | 12.5 µg/mL | 13% |
| NNC(=O)c1ccncc1 |  | resazurin | MIC | STB-825 |  |  | 0.0625 µg/mL |
| CCN(CC)Cc1c(C)[nH]c2cc(N(C)C)ccc2c1=O |  | BACTEC | MIC bound | H37Rv |  |  | >12.5 µg/mL |
| C(=C\c1ccccc1)/CNc1ccccc1Cn1ccnc1 |  |  | MIC | 6425 |  |  | 4 µg/mL |
| CC(C)OC(=O)C1(C(=O)OC(C)C)C[C@H](C=O)[C@H](C[N+](=O)[O-])c2c1[nH]c1ccccc21 |  |  | MIC | H37Ra |  |  | 256 µg/mL |
| COC(=O)c1c(-c2ccc([N+](=O)[O-])o2)noc1N |  |  | MIC |  |  |  | 10 µg/mL |
| CC(C)OC(=O)C1(C(=O)OC(C)C)C[C@@H]2CNC[C@H]2c2c1[nH]c1ccccc21 |  |  | MIC | H37Ra |  |  | 64 µg/mL |
| CN1CCN(Cc2ccc(NC/C=C/c3ccccc3)cc2)CC1 |  |  | MIC | 6431 |  |  | >64 µg/mL |
| CC(C)CC(NC(=O)OCc1ccccc1)C(=O)N/N=C/c1sccc1[N+](=O)[O-] |  | resazurin | MIC | H37Rv |  |  | 25 µg/mL |
| N#Cc1ccc(N2CC3CCC2CN3Cc2ccc([N+](=O)[O-])o2)cc1 | INH RFP resistant | resazurin | MIC90 | Clinical Isolate 16833 |  |  | 9.97 µg/mL |
| Cc1ccc2nc(Nc3ccc(Cl)cc3)cc(C(O)C3CCCCN3)c2c1 |  |  | MIC | H37Rv | VERO |  | 3.13 µg/mL |
| Cc1conc1-c1ccc([N+](=O)[O-])o1 |  |  | MIC |  |  |  | 1 µg/mL |
| COc1ccc(-c2nc3c(N)nc(N)nc3nc2C(C)C)cc1 |  | resazurin / fluorescence | MIC90 | H37Rv |  |  | 2–8 µM |
| CC(C)CCOc1ccc(NC(=S)NC2OC(CO)[C@@H](O)[C@@H]2O)cc1 |  | resazurin | MIC | H37Rv |  |  | 1.56–3.125 µg/mL |
| C[C@H]1COc2c(N3CCN(C(=O)C4COc5ccccc5O4)CC3)c(F)cc3c(=O)c(C(=O)O)cn1c23 |  | agar | MIC99 |  |  |  | 12.27 µM |
| Cc1c(C)[n+](=O)c2ccccc2n1[O-] |  | BACTEC | inhibition | H37Rv |  | 12.5 µg/mL | 0% |
| C[C@H]1COc2c(N3CCN(C)CC3)c(F)cc3c(=O)c(C(=O)O)cn1c23 |  |  | MIC90 |  |  |  | 1 µg/mL |
| CC12CCC(=O)c3coc(c31)C(=O)c1cc3c(cc12)C(=O)C=CC3=O |  | BACTEC | inhibition | H37Rv |  | 12.5 µg/mL | 0% |
| Cc1ccccc1Cn1ccc2c3c(N)nc(N)nc3ccc21 | Overexpressing DHFR | resazurin / fluorescence | MIC90 | H37Rv |  |  | 15.6 µM |
| C(=C\c1ccccc1)/CNc1cccc(Cn2ccnc2)c1 |  |  | MIC | B814 |  |  | 4 µg/mL |
| COc1c2c(cc(O)c1C(C)=O)OC(C)(C)C=C2 |  | BACTEC | MIC | H37Rv |  |  | ≥128 µg/mL |
| CC1COc2c(N3CCN(C(c4ccccc4)c4ccc(Cl)cc4)CC3)c(F)c([N+](=O)[O-])c3c(=O)c(C(=O)O)cn1c23 |  | agar | MIC99 |  |  |  | 2.63 µM |
| CCN(CC)C1CC(c2ccc([N+](=O)[O-])o2)=NO1 |  |  | MIC |  |  |  | 0.1 µg/mL |
| Cc1c(F)c(N2CCNC(C)C2)cc2c1c(=O)c(C(=O)O)cn2C1CC1 |  |  | MIC50 | 33 clinical isolates |  |  | 0.5 µg/mL |
| C(=C\c1ccccc1)/CNc1ccc(Cn2ccnc2)cc1 |  |  | MIC | B905 |  |  | 16 µg/mL |
| CCCCCCCOc1ccc(Cc2cnc(N)nc2N)cc1OC |  |  | MIC | H37Rv |  |  | 23.2 µM |
| CC(C)(C)OC(=O)NC(Cc1ccccc1)C(=O)N/N=C/c1occc1[N+](=O)[O-] |  | resazurin | MIC | H37Rv |  |  | 100 µg/mL |
| Cc1ccccc1NC(N)=S |  |  | MIC | A67 |  |  | 125 µM |
| CCCCCOc1ccc(Cc2cnc(N)nc2N)cc1OC |  |  | MIC | H37Rv |  |  | 50.6 µM |
| CC1=CC[C@@]2(C)CC[C@@](O)(C(C)C)[C@@H]2[C@@H](OCC(=O)c2ccc(O)cc2)C1 |  | broth dilution | EC90 |  |  |  | 2 µg/mL |
| C(/C=C/c1ccccc1)=Nc1ccc(Cn2ccnc2)cc1 |  |  | MIC | B905 |  |  | 32 µg/mL |
| CC(NC(=O)OC(C)(C)C)C(=O)N/N=C/c1ccco1 |  | resazurin | MIC | H37Rv |  |  | 100 µg/mL |
| COc1ccccc1-n1cc(C(F)F)nn1 |  |  | MIC | H37Rv |  |  | 40 µg/mL |
| N[C@@H]1CN(c2c(F)cc3c(=O)c(C(=O)O)cn([C@@H]4C[C@@H]4F)c3c2Cl)CC12CC2 |  |  | MIC90 |  |  |  | ≤0.125 µg/mL |
| O=c1nc(N2CCN(CC3CCCCC3)CC2)sc2c([N+](=O)[O-])cc(C(F)(F)F)cc12 | INH RFP resistant | resazurin | MIC90 | Clinical Isolate 16833 |  |  | <0.016 µg/mL |
| CC(C)OC(=O)C1(C(=O)OC(C)C)CC(C=O)Cc2c1[nH]c1ccccc21 |  |  | MIC | H37Ra |  |  | 64 µg/mL |
| Cc1nc2ccc3c(ccc4nc(C)c(N=Nc5ccc(C(=N)N)cc5)c(O)c43)c2c(O)c1N=Nc1ccc(C(=N)N)cc1 |  | BACTEC | MIC | H37Rv |  |  | ≥12.5 µg/mL |
| C(=C\c1ccccc1)/CNc1ccc(CN2CCOCC2)cc1 |  |  | MIC | B814 |  |  | 32 µg/mL |
| CC(C)OC(=O)C1(C(=O)OC(C)C)CC2C(C)NCC2c2c1[nH]c1ccccc21 |  |  | MIC | H37Ra |  |  | 16 µg/mL |
| Cc1cc(=O)oc2c(-c3ccccc3)n[nH]c(=O)c12 |  | BACTEC | inhibition | H37Rv |  | 12.5 µg/mL | 42% |
| COC(=O)C1=C(C)NC(Nc2cccc(C#N)c2)=NC1c1ccc(Cl)cc1 |  | agar | MIC | MDR-TB |  |  | 32 µg/mL |
| CC1=CC[C@@]2(C)CC[C@@](O)(C(C)C)[C@@H]2[C@@H](OCC(=O)c2ccccc2)C1 |  | broth dilution | EC90 |  |  |  | 0.69 µg/mL |
| CC1=N/C(=C/c2ccccc2O)C(=O)N1n1c(-c2ccccc2)nc2ccccc2c1=O |  | BACTEC | inhibition | H37Rv |  | 12.5 µg/mL | 23% |
| NC1=NC2(CCCCC2)N(OCCCOc2ccc3ccccc3c2)C(N)=N1 |  | resazurin / fluorescence | MIC90 | H37Rv |  |  | 0.5 µM |
| O=[N+]([O-])c1ccc(C2=NOC(N3CCCCC3)C2c2ccccc2)o1 |  |  | MIC |  |  |  | 3 µg/mL |
| O=[N+]([O-])c1ccc(CN2CCC3(CC2)CCN(c2ccc(OC(F)(F)F)cc2)CC3)o1 |  | resazurin | MIC90 | H37Rv |  |  | <0.016 µg/mL |
| CCCCC(CC)COc1ccc(Cc2cnc(N)nc2N)cc1OC |  |  | MIC | H37Rv |  |  | 22.3 µM |
| C[n+]1c(-c2ccc(/C=N/NC(=O)c3cc(O)c(C(=O)N/N=C/c4ccc(-c5cn6ccccc6[n+]5C)cc4)cc3O)cc2)cn2ccccc21.[Br-].[Br-] |  | BACTEC | inhibition | H37Rv |  | 12.5 µg/mL | 5% |
| C[C@H]1COc2c(N3CCN(C)CC3)c(F)cc3c(=O)c(C(=O)O)cn1c23 |  |  | MIC | H37Rv |  |  | 0.5 µg/mL |
| O=C(CCCC(=O)NNC(=S)Nc1cccc2ccccc12)NNC(=S)Nc1cccc2ccccc12 |  | BACTEC | MIC bound | H37Rv |  |  | >12.5 µg/mL |
| COc1cc(Cc2cnc(N)nc2N)ccc1OCCOc1ccccc1 |  |  | MIC | H37Rv |  |  | 65.5 µM |
| C[C@H]1COc2c(N3CCC(n4c(=O)[nH]c5cc(Cl)ccc54)CC3)c(F)c([N+](=O)[O-])c3c(=O)c(C(=O)O)cn1c23 |  | agar | MIC99 |  |  |  | 0.34 µM |
| O=C(NC(Cc1ccccc1)C(=O)N/N=C/c1sccc1[N+](=O)[O-])OCc1ccccc1 |  | resazurin | MIC | H37Rv |  |  | 50 µg/mL |
| NC(=S)NCc1ccccc1 |  |  | MIC | A67 |  |  | 250 µM |
| CC(=O)NC1(C)C2CCC3(C)N=C(C)C1CC3C2 |  | BACTEC | inhibition | H37Rv |  | 12.5 µg/mL | 15% |
| CC(C)OC(=O)c1cc(C=O)cc2c1[nH]c1ccccc12 |  |  | MIC | H37Ra |  |  | 128–256 µg/mL |
| COC(=O)C1=C(C)NC(Nc2ccc([N+](=O)[O-])cc2O)=NC1c1ccc(Cl)cc1 |  | agar | MIC | XDR-TB |  |  | >64 µg/mL |
| COc1cc2c(c(OC)c1OC)-c1ccc(OC)c(=O)cc1C(NC1=C(Cl)C(=O)c3ccccc3C1=O)CC2 |  | BACTEC | inhibition | H37Rv |  | 12.5 µg/mL | 92% |
| C[C@H]1COc2c(N3CCN(C)CC3)c(F)cc3c(=O)c(C(=O)O)cn1c23 |  | agar | MIC | H37Rv |  |  | 0.5 µg/mL |
| CC(=O)c1c(-c2ccc([N+](=O)[O-])o2)noc1C |  |  | MIC |  |  |  | 30 µg/mL |
| NNC(=O)C(N)Cc1ccccc1 |  | resazurin | MIC | H37Rv |  |  | 100 µg/mL |
| NC(=O)C1CON=C1c1ccc([N+](=O)[O-])o1 |  |  | MIC |  |  |  | 1 µg/mL |
| C[C@@H]1CN(c2c(F)c(N)c3c(=O)c(C(=O)O)cn(C4CC4)c3c2F)C[C@H](C)N1 |  |  | MIC90 |  |  |  | 0.2 µg/mL |
| NCCCN1c2ccccc2Sc2ccccc21 |  | resazurin | MIC | XDR-926 |  |  | 16 µg/mL |
| CC(=O)NC1C(O)C(O)C(CO)OC1n1nc(SCc2ccccc2)c(=O)[nH]c1=O |  | resazurin | inhibition | H37Rv |  | 6.25 µg/mL | 20% |
| CCOC(=O)c1ccc(NC(N)=S)cc1 |  |  | MIC | A67 |  |  | 250 µM |
| N#Cc1ccc(Cn2ccc3c4c(N)nc(N)nc4ccc32)cc1 | Overexpressing DHFR | resazurin / fluorescence | MIC90 | H37Rv |  |  | >2 µM |
| COC(=O)C1=C(C)NC(Nc2cc(O)cc(Cl)c2)=NC1c1ccc(Cl)cc1 |  | agar | MIC | MDR-TB |  |  | 32 µg/mL |
| COc1cc(C(=O)OC2CC(C)=CCC3(C)CCC(O)(C(C)C)C23)ccc1O |  |  | MIC | H37Rv |  |  | 8 µg/mL |
| O=C(c1cc2ccccc2o1)N1CCN(Cc2ccccc2)CC1 |  | BACTEC | MIC bound | H37Rv |  |  | >12.5 µg/mL |
| O=[N+]([O-])c1ccc(C2=NOC3CCCCC23)o1 |  |  | MIC |  |  |  | 1 µg/mL |
| Nc1c(C(=O)O)[nH]c(=O)[nH]c1=O |  | BACTEC | inhibition | H37Rv |  | 12.5 µg/mL | 0% |
| CC(C)CCOc1ccc(NC(=S)NC2OC(CO)[C@H](O)[C@@H]2O)cc1 |  | resazurin | MIC | H37Rv |  |  | 50 µg/mL |
| CC(C)(C)N1CCC1C(=O)NN |  | BACTEC | MIC bound | H37Rv |  |  | >12.5 µg/mL |
| CC(C)CC(NC(=O)OC(C)(C)C)C(=O)N/N=C/c1sccc1[N+](=O)[O-] |  | resazurin | MIC | H37Rv |  |  | 50 µg/mL |
| CC1(C)N=C(N)N=C(N)N1OCCc1ccc2ccccc2c1 |  | resazurin / fluorescence | MIC90 | H37Rv |  |  | 1 µM |

For reference, 5 entries again:

compound | mutations | read by | measure | strain or isolate | cells | tested at | value
C(=C\c1ccccc1)/CNc1ccc(Cn2ccnc2)cc1 |  |  | MIC | B905 |  |  | 16 µg/mL
CCCCCOc1ccc(Cc2cnc(N)nc2N)cc1OC |  |  | MIC | H37Rv |  |  | 50.6 µM
C(/C=C/c1ccccc1)=Nc1ccc(Cn2ccnc2)cc1 |  |  | MIC | B905 |  |  | 32 µg/mL
CC(=O)NNc1nc(C)c(C(=O)NNC(=O)C(=O)Nc2ccc(C)c(C)c2)s1 |  | BACTEC | inhibition | H37Rv |  | 12.5 µg/mL | 13%
Cc1nc2ccc3c(ccc4nc(C)c(N=Nc5ccc(C(=N)N)cc5)c(O)c43)c2c(O)c1N=Nc1ccc(C(=N)N)cc1 |  | BACTEC | MIC | H37Rv |  |  | ≥12.5 µg/mL